Test results taken from patent US10851401B2, “Broth microdilution method for evaluating and determining minimal inhibitory concentration of antibacterial polypeptides” (priority 2016, dated 2020).

How the values were obtained:
[1] = MIC assays under different conditions (FIG. 7); conditions: MHBII, 25% horse serum, 0.5 mM DTT
S. aureus ATCC 700699 = assay: BMD MIC assay of a single strain in CA-MHB, human blood matrices and supplemented broth
[2] = S. aureus ATCC 70069, CA-MHB supplemented with 0.25% horse serum and 0.5 mM DTT (FIG. 8)

B1: CF-301: bacteriophage lysin polypeptide derived from a Streptococcus suis prophage, amino acid sequence of FIG. 1 / SEQ ID NO: 1; 26 kDa bacteriolytic enzyme (protein, listed as Streptococcus suis)
chain: MTTVNEALNNVRAQVGSGVSVGNGECYALASWYERMISPDATVGLGAGVGWVSGAIGDTISAKNIGSSYNWQANGWTVSTSGPFKAGQIVTLGATPGNPYGHVVIVEAVDGDRLTILEQNYGGKRYPVRNYYSAASYRQQVVHYITPPGTVAQSAPNLAGSRSYRETGTMTVTVDALNVRRAPNTSGEIVAVYKRGESFDYDTVIIDVNGYVWVSYIGGSGKRNYVATGATKDGKRFGNAWGTFK
[1]
  MIC: 0.5 µg/mL
S. aureus ATCC 700699; CA-MHB with 25% horse serum and 0.5 mM DTT (FIG. 8)
  MIC: 1 µg/mL
S. aureus ATCC 700699; [2]
  MIC: 1 µg/mL
  trailing or Eagle effect: no trailing or Eagle effect
S. aureus ATCC 700699; standard conditions, CA-MHB / MHBII
  trailing and Eagle effects observed up to: up to 512 μg/ml
